# Data: PMC7971878, “ADAM17 is an essential attachment factor for classical swine fever virus” (2021)
# Target: chicken ADAM17 (cADAM17), flag-tagged, stably expressed in PK15 ADAM17-KO cells (chicken)
# Assay: flow cytometry on cells
substance,measurement,value
CSFV E2 extracellular domain fused with Fc tag at the C-terminus (sE2-Fc) (Fc fusion),binding efficiency as compared with pADAM17,20%
